In ChEMBL document CHEMBL2396622, “Interfacial cavity filling to optimize CD4-mimetic miniprotein interactions with HIV-1 surface glycoprotein” (J Med Chem, 2013):

What was measured:
[1] = target: Envelope glycoprotein gp160 (Human immunodeficiency virus type 1 group M subtype B (isolate SF162)(HIV-1), UniProt P19550); experiment: Displacement of soluble CD4 from HIV1 SF162 gp120 after overnight incubation by ELISA; set-up: species or system Human immunodeficiency virus type 1 (SF162 ISOLATE)
[2] = tested on: Human immunodeficiency virus 1; experiment: Displacement of soluble CD4 from HIV1 CN54 gp120 after overnight incubation by ELISA relative to M48
[3] = tested on: Human immunodeficiency virus 1; experiment: Ratio of IC50 for HIV1 CN54 gp120 to IC50 for HIV1 SF162 gp120
[4] = tested on: Human immunodeficiency virus 1; experiment: Antiviral activity against subtype C R5 tropic HIV1 p246F10 infected in human TZM-bl cells after 48 hrs by luciferase repoter gene assay; format: functional, organism-based; settings: Human immunodeficiency virus 1, p246F10, TZM-bl
[5] = tested on: Human immunodeficiency virus 1; experiment: Antiviral activity against subtype B R5 tropic HIV1 pREJO.c/2864 infected in human TZM-bl cells after 48 hrs by luciferase repoter gene assay; format: functional, organism-based; settings: Human immunodeficiency virus 1, pREJO.c/2864, TZM-bl
[6] = Displacement of soluble CD4 from HIV1 CN54 gp120 after overnight incubation by ELISA; set-up: species or system Human immunodeficiency virus 1
[7] = tested on: Human immunodeficiency virus 1; experiment: Ratio of IC50 for HIV1 SF162 gp120 to IC50 for HIV1 CN54 gp120
[8] = tested on: Human immunodeficiency virus 1; experiment: Antiviral activity against subtype B R5 tropic HIV1 Bal infected in human TZM-bl cells after 48 hrs by luciferase repoter gene assay; format: functional, organism-based; settings: Human immunodeficiency virus 1, Bal
[9] = tested on: Human immunodeficiency virus 1; experiment: Antiviral activity against subtype C R5 tropic HIV1 VI829 infected in human TZM-bl cells after 48 hrs by luciferase repoter gene assay; format: functional, organism-based; settings: Human immunodeficiency virus 1, VI829, TZM-bl
Outline: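 TZM-bl cells (10⁴/well) pre-incubated 30 min at 37 °C, 5% CO₂ with serial compound dilutions, then infected with 200 TCID₅₀ virus; luciferase read after 48 h. Triplicate wells, single experiment; % inhibition versus untreated control plotted against concentration, EC₅₀ by non-linear regression.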

[10] = tested on: Human immunodeficiency virus 1; experiment: Antiviral activity against subtype B X4 tropic HIV1 3B infected in human TZM-bl cells after 48 hrs by luciferase repoter gene assay; format: functional, organism-based; settings: Human immunodeficiency virus 1, 3B
[11] = target: Envelope glycoprotein gp160 (Human immunodeficiency virus type 1 group M subtype B (isolate SF162)(HIV-1)) (UniProt P19550); experiment: Displacement of soluble CD4 from HIV1 SF162 gp120 after overnight incubation by ELISA relative to M48; settings: Human immunodeficiency virus type 1 (SF162 ISOLATE)
[12] = tested on: Human immunodeficiency virus 1; experiment: Antiviral activity against subtype C R5 tropic HIV1 VI1358 infected in human TZM-bl cells after 48 hrs by luciferase repoter gene assay; format: functional, organism-based; settings: Human immunodeficiency virus 1, VI1358, TZM-bl
[13] = tested on: Human immunodeficiency virus 1; experiment: Antiviral activity against subtype B R5 tropic HIV1 Bal infected in human GHOST cells; format: functional, organism-based; settings: Human immunodeficiency virus 1, Bal
[14] = tested on: Human immunodeficiency virus 1; experiment: Antiviral activity against subtype B X4 tropic HIV1 3B infected in human GHOST cells; format: functional, organism-based; settings: Human immunodeficiency virus 1, 3B
[15] = tested on: Human immunodeficiency virus 1; experiment: Antiviral activity against subtype C R5 tropic HIV1 VI829 infected in human GHOST cells; format: functional, organism-based; settings: Human immunodeficiency virus 1, VI829, GHOST
[16] = tested on: Human immunodeficiency virus 1; experiment: Antiviral activity against subtype C R5 tropic HIV1 VI1358 infected in human GHOST cells; format: functional, organism-based; settings: Human immunodeficiency virus 1, VI1358, GHOST

SMILES	IC50 [1] [µM]	Ratio IC50 [2]	Ratio IC50 [3]	EC50 [4] [µM]	EC50 [5] [µM]	IC50 [6] [µM]	Ratio IC50 [7]	EC50 [8] [µM]	EC50 [9] [µM]	EC50 [10] [µM]	Ratio IC50 [11]	EC50 [12] [µM]	EC50 [13] [µM]	EC50 [14] [µM]	EC50 [15] [µM]	EC50 [16] [µM]
CC(C)C[C@@H]1NC(=O)CNC(=O)[C@H](CC(C)C)NC(=O)[C@H](CO)NC(=O)[C@H](CCCCN)NC(=O)[C@@H]2CSSC[C@@H](C(=O)N[C@H](C(N)=O)C(C)C)NC(=O)[C@H](C)NC(=O)[C@@H]3CSSC[C@H](NC(=O)[C@H](Cc4ccccc4)NC(=O)[C@H](Cc4cnc[nH]4)NC(=O)[C@H](CC(C)C)NC(=O)[C@H](CC(N)=O)NC(=O)CCSSC[C@H](NC(=O)[C@H](CCCN=C(N)N)NC(=O)CNC(=O)[C@H](CC(C)C)NC1=O)C(=O)N[C@@H](C)C(=O)N1CCC[C@@H]1C(=O)N[C@@H]([C@@H](C)O)C(=O)N[C@@H](Cc1ccc(OCCCCO)cc1)C(=O)N3)C(=O)N[C@@H](CCC(N)=O)C(=O)N[C@@H](CC(C)C)C(=O)N[C@@H](CCCN=C(N)N)C(=O)N2	0.00086	–	–	–	–	–	–	–	–	–	–	–	–	–	–	–
CC(C)C[C@@H]1NC(=O)CNC(=O)[C@H](CC(C)C)NC(=O)[C@H](CO)NC(=O)[C@H](CCCCN)NC(=O)[C@@H]2CSSC[C@@H](C(=O)N[C@H](C(N)=O)C(C)C)NC(=O)[C@H](C)NC(=O)[C@@H]3CSSC[C@H](NC(=O)[C@H](Cc4ccccc4)NC(=O)[C@H](Cc4cnc[nH]4)NC(=O)[C@H](CC(C)C)NC(=O)[C@H](CC(N)=O)NC(=O)CCSSC[C@H](NC(=O)[C@H](CCCNC(=N)N)NC(=O)CNC(=O)[C@H](CC(C)C)NC1=O)C(=O)N[C@@H](C)C(=O)N1CCC[C@@H]1C(=O)N[C@@H]([C@@H](C)O)C(=O)N[C@@H](Cc1ccc(OCCSCCO)cc1)C(=O)N3)C(=O)N[C@@H](CCC(N)=O)C(=O)N[C@@H](CC(C)C)C(=O)N[C@@H](CCCNC(=N)N)C(=O)N2	0.00028	1.2	12	> 1	> 1	0.0034	2.4	0.048	> 1	0.0025	0.5	> 1	–	–	–	–
CC(C)C[C@@H]1NC(=O)CNC(=O)[C@H](CC(C)C)NC(=O)[C@H](CO)NC(=O)[C@H](CCCCN)NC(=O)[C@@H]2CSSC[C@@H](C(=O)N[C@H](C(N)=O)C(C)C)NC(=O)[C@H](C)NC(=O)[C@@H]3CSSC[C@H](NC(=O)[C@H](Cc4ccccc4)NC(=O)[C@H](Cc4cnc[nH]4)NC(=O)[C@H](CC(C)C)NC(=O)[C@H](CC(N)=O)NC(=O)CCSSC[C@H](NC(=O)[C@H](CCCNC(=N)N)NC(=O)CNC(=O)[C@H](CC(C)C)NC1=O)C(=O)N[C@@H](C)C(=O)N1CCC[C@@H]1C(=O)N[C@@H]([C@@H](C)O)C(=O)N[C@@H](Cc1ccc(OCC4CCCN4)cc1)C(=O)N3)C(=O)N[C@@H](CCC(N)=O)C(=O)N[C@@H](CC(C)C)C(=O)N[C@@H](CCCNC(=N)N)C(=O)N2 (some centres undefined)	–	13	7	–	–	0.0382	1.3	–	–	–	10	–	–	–	–	–
CC(C)C[C@@H]1NC(=O)CNC(=O)[C@H](CC(C)C)NC(=O)[C@H](CO)NC(=O)[C@H](CCCCN)NC(=O)[C@@H]2CSSC[C@@H](C(=O)N[C@H](C(N)=O)C(C)C)NC(=O)[C@H](C)NC(=O)[C@@H]3CSSC[C@H](NC(=O)[C@H](Cc4ccccc4)NC(=O)[C@H](Cc4cnc[nH]4)NC(=O)[C@H](CC(C)C)NC(=O)[C@H](CC(N)=O)NC(=O)CCSSC[C@H](NC(=O)[C@H](CCCNC(=N)N)NC(=O)CNC(=O)[C@H](CC(C)C)NC1=O)C(=O)N[C@@H](C)C(=O)N1CCC[C@@H]1C(=O)N[C@@H]([C@@H](C)O)C(=O)N[C@@H](Cc1ccc(OCCC4CCCC4)cc1)C(=O)N3)C(=O)N[C@@H](CCC(N)=O)C(=O)N[C@@H](CC(C)C)C(=O)N[C@@H](CCCNC(=N)N)C(=O)N2	0.0005	0.59	3	0.898	0.068	0.0017	0.7	0.003	0.103	0.0003	0.9	0.826	0.004	0.0005	0.098	0.042
CC(C)C[C@@H]1NC(=O)CNC(=O)[C@H](CC(C)C)NC(=O)[C@H](CO)NC(=O)[C@H](CCCCN)NC(=O)[C@@H]2CSSC[C@@H](C(=O)N[C@H](C(N)=O)C(C)C)NC(=O)[C@H](C)NC(=O)[C@@H]3CSSC[C@H](NC(=O)[C@H](Cc4ccccc4)NC(=O)[C@H](Cc4cnc[nH]4)NC(=O)[C@H](CC(C)C)NC(=O)[C@H](CC(N)=O)NC(=O)CCSSC[C@H](NC(=O)[C@H](CCCNC(=N)N)NC(=O)CNC(=O)[C@H](CC(C)C)NC1=O)C(=O)N[C@@H](C)C(=O)N1CCC[C@@H]1C(=O)N[C@@H]([C@@H](C)O)C(=O)N[C@@H](Cc1ccc(OCCCCO)cc1)C(=O)N3)C(=O)N[C@@H](CCC(N)=O)C(=O)N[C@@H](CC(C)C)C(=O)N[C@@H](CCCNC(=N)N)C(=O)N2	–	3.5	12	–	–	0.0101	2.2	–	–	–	1.6	–	–	–	–	–
